Anti-infective test results gathered from many reports (values: NIAID ChemDB through PubChem).

All rows: tests in culture; agent: Candida glabrata; read-out: MIC

Neighbouring rows are from separate reports. Blank or dashed fields: not listed here.

SMILES	strain	read by	setting	value
O=C(CCn1ccnc1)c1cccc2ccccc12	RTCC 1054	broth dilution		>64 µg/mL
C[C@@H](c1ncncc1F)[C@](O)(Cn1cncn1)c1ccc(F)cc1F	8659	broth dilution		0.5 µg/mL
Cc1ccc(N2C(=O)CC(C)C2=O)cc1	CCC 115-2000	broth dilution / turbidity		125 µg/mL
C[C@@H](c1ncncc1F)[C@](O)(Cn1cncn1)c1ccc(F)cc1F	40 isolates	broth dilution	pH 7	0.125 µg/mL
C[C@@H]1CC(=O)N(CCCCc2ccccc2)C1=O	CCC 115-2000	broth dilution / turbidity		125 µg/mL
COC(=O)[C@H]1[C@@H]2C[C@@H](O[C@@H]3O[C@H](C)[C@@H](O)[C@H](N)[C@@H]3O)/C=C/C=C/C=C/C=C/C=C/C=C/C=C/[C@H](C)[C@@H](O)[C@H](C)[C@H](C)OC(=O)C[C@H](O)C[C@H](O)[C@@H](O)CC[C@H](O)C[C@H](O)C[C@](O)(C[C@@H]1O)O2	40 isolates	broth dilution	pH 7	0.125 µg/mL
CC1CC(=O)N(CCc2ccccc2)C1=O	CCC 115-2000	broth dilution / turbidity		125 µg/mL
Cc1ccc(C(O)c2cccc(C(O)CCn3ccnc3)c2)cc1	RTCC 1054	broth dilution		>64 µg/mL
Nc1[nH]c(=O)ncc1F	40 isolates	broth dilution	pH 4	0.125 µg/mL
O=C(CCn1ccnc1)c1cccc(C(O)c2ccc(Br)cc2)c1	RTCC 1040	broth dilution		64 µg/mL
CC[C@@H]([C@H](C)O)n1ncn(-c2ccc(N3CCN(c4ccc(OC[C@@H]5CO[C@@](Cn6cncn6)(c6ccc(F)cc6F)C5)cc4)CC3)cc2)c1=O	8655	broth dilution		1 µg/mL
Cc1ccc(C(O)c2cccc(C(=O)CCn3ccnc3)c2)cc1	RTCC 1040	broth dilution		64 µg/mL
C[C@@H]1CC(=O)N(c2ccc(F)cc2F)C1=O	CCC 115-2000	broth dilution / turbidity		62.5 µg/mL
Clc1ccccc1C(c1ccccc1)(c1ccccc1)n1ccnc1	40 isolates	broth dilution	pH 4	16 µg/mL
O=C(CCn1ccnc1)c1ccc(Cl)cc1	RTCC 1054	broth dilution		>64 µg/mL

Repeating the final 2 entries:

SMILES,strain,read by,setting,value
Clc1ccccc1C(c1ccccc1)(c1ccccc1)n1ccnc1,40 isolates,broth dilution,pH 4,16 µg/mL
O=C(CCn1ccnc1)c1ccc(Cl)cc1,RTCC 1054,broth dilution,,>64 µg/mL